This passage reports The ratio of AB5/AB5 + B5 (%) results from US20080102078.

This experiment addresses E. coli heat-labile enterotoxin subunit B pentamer (B5), from human enterotoxigenic E. coli H10407, Escherichia coli H10407 (human enterotoxigenic), P0CK94 22-124.
For the substance “LTA(S61F), mutated subunit A of LTh(S61F)”, the The ratio of AB5/AB5 + B5 (%) was determined as 70%.

In the case of “LTA(S61H), mutated subunit A of LTh(S61H)”, the The ratio of AB5/AB5 + B5 (%) turned out to be 60%.

Turning to “LTA(S61K), mutated subunit A of LTh(S61K)”, the The ratio of AB5/AB5 + B5 (%) is 92%.

As to “LTA(S61R), mutated subunit A of LTh(S61R)”, the The ratio of AB5/AB5 + B5 (%) came to 85%.

Regarding “LTA(S61Y), mutated subunit A of LTh(S61Y)”, the The ratio of AB5/AB5 + B5 (%) is 57%.
